Record: PubChem BioAssay AID1259414 (Drosophila RNAi Screening Center, 2018)

Assay: 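Host factors increasing or decreasing Wolbachia levels in cultured fly cells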 (primary screen)
Cells: Drosophila JW18 cells infected with Wolbachia
Knock-down reagent: long dsRNA against Drosophila genes, 0.25 µg dsRNA per well of a 384-well plate
Timing: 5 days
Challenge: cells persistently infected with Wolbachia before knock-down; no added drug
Measured: 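Automated imaging of bacterial rRNA staining divided by host cell count, reported as plate-normalised robust z-score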
Reading the numbers: Wolbachia per cell robust z: higher = more Wolbachia per host cell than the plate typical
Active means: 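Active if absolute robust z reaches 1.5 in two or more of three replicates, leaving out multi- or no-target dsRNAs, genes unexpressed in JW18 and A1 wells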
The screen tested about 24,000 reagents; below is a random part of those with a known target gene and a result. Of all reagents, about 1,210 (5%) were called active. 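Inactive calls also include excluded dsRNAs with several or no targets, genes unexpressed in JW18, and well A1, regardless of score.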

Cyp6a19 [DRSC07379] — Wolbachia per cell robust z, rep 1 = -1.5; Wolbachia per cell robust z, rep 2 = -0.631; Wolbachia per cell robust z, rep 3 = -0.596; Outcome = inactive
CG7173 [DRSC23252] — Wolbachia per cell robust z, rep 1 = 0.399; Wolbachia per cell robust z, rep 2 = -3.05; Wolbachia per cell robust z, rep 3 = -0.386; Outcome = inactive
CG7173 [DRSC29453] — Wolbachia per cell robust z, rep 1 = -0.0649; Wolbachia per cell robust z, rep 2 = -0.197; Wolbachia per cell robust z, rep 3 = -6.85; Outcome = inactive
CG8248 [DRSC07124] — Wolbachia per cell robust z, rep 1 = 0.125; Wolbachia per cell robust z, rep 2 = 0.29; Wolbachia per cell robust z, rep 3 = 0.069; Outcome = inactive
CG2182 [DRSC12308] — Wolbachia per cell robust z, rep 1 = -2.44; Wolbachia per cell robust z, rep 2 = -0.524; Wolbachia per cell robust z, rep 3 = -0.385; Outcome = inactive
CG2182 [DRSC30052] — Wolbachia per cell robust z, rep 1 = 0.68; Wolbachia per cell robust z, rep 2 = -0.436; Wolbachia per cell robust z, rep 3 = 0.245; Outcome = inactive
CG6878 [DRSC10737] — Wolbachia per cell robust z, rep 1 = -3.39; Wolbachia per cell robust z, rep 2 = -0.345; Wolbachia per cell robust z, rep 3 = -2.84; Outcome = active
CG11382 [DRSC18624] — Wolbachia per cell robust z, rep 1 = 0.296; Wolbachia per cell robust z, rep 2 = 1.05; Wolbachia per cell robust z, rep 3 = -0.104; Outcome = inactive
piwi [DRSC03592] — Wolbachia per cell robust z, rep 1 = -5.75; Wolbachia per cell robust z, rep 2 = 0.769; Wolbachia per cell robust z, rep 3 = 0.145; Outcome = inactive
spel1 [DRSC03617] — Wolbachia per cell robust z, rep 1 = -0.000264; Wolbachia per cell robust z, rep 2 = -0.366; Wolbachia per cell robust z, rep 3 = 0.324; Outcome = inactive
spel1 [DRSC29609] — Wolbachia per cell robust z, rep 1 = -0.252; Wolbachia per cell robust z, rep 2 = 0.169; Wolbachia per cell robust z, rep 3 = -0.272; Outcome = inactive
Cc2d2a [DRSC06750] — Wolbachia per cell robust z, rep 1 = 0.603; Wolbachia per cell robust z, rep 2 = -1.33; Wolbachia per cell robust z, rep 3 = 0.34; Outcome = inactive
Cc2d2a [DRSC06779] — Wolbachia per cell robust z, rep 1 = -0.803; Wolbachia per cell robust z, rep 2 = -0.281; Wolbachia per cell robust z, rep 3 = -1.16; Outcome = inactive
Cc2d2a [DRSC26325] — Wolbachia per cell robust z, rep 1 = 0.0477; Wolbachia per cell robust z, rep 2 = 0.106; Wolbachia per cell robust z, rep 3 = -0.908; Outcome = inactive

Sorted by “Wolbachia per cell robust z, rep 2” (descending): some entries from above
CG11382 [DRSC18624] — Wolbachia per cell robust z, rep 1 = 0.296; Wolbachia per cell robust z, rep 2 = 1.05; Wolbachia per cell robust z, rep 3 = -0.104; Outcome = inactive
CG6878 [DRSC10737] — Wolbachia per cell robust z, rep 1 = -3.39; Wolbachia per cell robust z, rep 2 = -0.345; Wolbachia per cell robust z, rep 3 = -2.84; Outcome = active
